Source: US20050267071A1, “Inhibitors of coronavirus protease and methods of use thereof” (Fulcrum Pharmaceuticals, Inc., priority 2003, published 2005)
Structures were worked out from names or drawings and are uncertain.

Target: SARS-associated coronavirus protease 3CL^pro (Severe acute respiratory syndrome coronavirus, UniProt P0C6U8)
Assay: Inhibition kinetics of recombinant SARS-associated 3CLpro protease (FRET fluorogenic substrate, Ki)
Assay type: biochemical
Details: read-out: Ki^app; protease 1 μM, 20 minutes preincubation at room temperature, inhibitor 0-150 μM, substrate 5 μM, pH 7.4

## Nc1cc(B(O)O)cc(C(=O)OCc2cccc(B(O)O)c2)c1
  Ki: 3.53 µM
